A mixed list of measured activities; the numbers were collected in NIAID ChemDB.

Common to all: cytotoxicity tests; cell line: HeLa; read-out: CC50

CCn: concentration that lowers growth or viability of the cells by n%. Rows are shuffled and stem from different studies. a–b is a range or a potency band. An empty or dashed field is not shown.

| structure | method | result |
|---|---|---|
| COc1ccccc1NC(=O)c1ccccc1Oc1ccc(OCO)c(OCO)c1 | MTT | >100 µM |
| CN1C=CN(c2cccc(N3C=CN(C)C3)n2)C1.[Cl][Au].[Cl][Au] | sulforhodamine / absorbance | >30 µM |
| COc1ccc(-n2c(Cc3nc4n(n3)CCCC4)n[nH]c2=S)cc1 | - | 400 µg/mL |
| CCCCCCS(=O)(=O)c1ccc(Oc2ccc(C(=O)c3ccccc3)cc2)nc1 | - | >10 µg/mL |
| C/C(=C\CCC1(C)C=Cc2cc(O)cc(C)c2O1)CC/C=C(\C)CC[C@@H](C)C(C)(C)O | - | 24 µM |
| COc1ccc(C2=C3c4cc(OC)c(OC)cc4C=CN3C3C(=O)Oc4cc(OS(=O)(=O)O)c(OC)cc4C23)cc1O | MTT | 274 µM |
| CCn1nc(-c2ccc(Cn3ccc4ccccc43)cc2)nc1C | - | 400 µg/mL |
| CS(=O)(=O)c1ccc(Oc2ccc(C(=O)c3ccccc3)cc2)nc1 | - | >10 µg/mL |
| O=C(OCC1CCCCC1)c1nc(-c2ncccc2Cl)[nH]c(=O)c1O | luminescence | >50 µM |
| CC1(C)[C@@H](CO)CC[C@@]1(C)Cn1nnc2c(Cl)ncnc21 | - | >400 µg/mL |
| COc1cc(C(=O)Oc2c(-c3ccc(Cl)cc3)oc3ccccc3c2=O)cc(OC)c1O | - | 0.54 µM |
| O=C(OCCCC1CCCCC1)c1nc(-c2ccccn2)[nH]c(=O)c1O | luminescence | >50 µM |
| Cc1cn([C@H]2C[C@H](O[Si](C)(C)C(C)(C)C)[C@@H](/C=C\C#N)O2)c(=O)[nH]c1=O | - | 50–100 µM |
| COc1ccc(OCc2ccc(COc3c(Cl)cccc3Cl)cc2)c(Cl)c1 | - | >50 µg/mL |
| Nc1nccc2c1ncn2[C@@H]1C[C@H](CO)[C@@H](O)[C@H]1O | - | >250 µg/mL |
| COc1ccc(C(O)c2ccccc2C(=O)Nc2ccccc2OC)cc1 | MTT | >100 µM |
| CC#C[C@]1(O)CC[C@H]2[C@@H]3CCC4=CC(=O)CCC4=C3[C@@H](c3ccc(N(C)C)cc3)C[C@@]21C | MTT | >50 µM |
| COc1ccc(-c2cc(N3CCCC3)no2)c(O)c1 | - | >384 µM |
| CCOC(=O)/C=C/[C@H](CCC(N)=O)NC(=O)[C@H](Cc1ccccc1)NC(=O)[C@H](CC(C)C)NC(=O)OC | - | >100 µM |
| CC(=O)Oc1ccc(/C=C/C(=O)Oc2c(-c3ccc(Cl)c(Cl)c3)oc3ccccc3c2=O)cc1OC(C)=O | - | 0.86 µM |
| Nc1ncnc2c1ncn2[C@H]1C[C@@H](CO)[C@H](O)[C@@H]1O | - | >400 µg/mL |
| O=c1c(Cc2ccc(Cl)cc2)coc2cc(Cl)cc(Cl)c12 | - | 25 µM |
| CCn1nc(CC(=O)N/N=C/c2ccco2)nc1C | - | >400 µg/mL |
| [N-]=[N+]=N[C@H]1[C@@H](F)[C@H](N2C=CC(N)NC2=O)O[C@@H]1CO | - | >400 µg/mL |
| COc1cc(OC[C@H]2CC[C@@H](CO)O2)nc(N)n1 | - | >250 µM |
| CCCOc1ncn(-c2ccc(NC(=S)Nc3ncccn3)cc2)n1 | - | 40 µg/mL |
| Nc1ccnc(OC[C@H]2CC[C@@H](COCc3ccccc3)O2)n1 | - | ≥250 µM |
| CCCCCCCC(=O)O[C@H]1[C@H](O)[C@H](n2ccc(N)nc2=O)O[C@@H]1CO | neutral red | 0.09 µg/mL |
| CC1(C)[C@@H](CO)CC[C@@]1(C)Cn1cnc2c(Cl)ncnc21 | - | >400 µg/mL |
| O=c1ccn([C@@H]2C[C@H](CO)C[C@H]2CO)c(=O)[nH]1 | - | >200 µg/mL |
| COc1ccccc1NC(=O)c1ccccc1C(O)c1ccc([N+](=O)[O-])cc1 | MTT | >100 µM |
| NC(N)=NC(N)=Nc1ccccc1 | MTT | 8470 µM |
| O=C(Oc1c(-c2ccc(Cl)c(Cl)c2)oc2ccccc2c1=O)c1cc(O)c(O)c(O)c1 | - | 6.32 µM |
| Nc1cc(OC[C@H]2CC[C@@H](COCc3ccccc3)O2)ncn1 | - | 208 µM |
| NC(=O)CCNC[C@H](Cc1ccc(O)cc1)NC[C@H](Cc1ccc(O)cc1)NC[C@H](Cc1ccc(O)cc1)NC[C@H](Cc1ccc(O)cc1)NC[C@H](Cc1ccc(O)cc1)NC[C@@H](N)Cc1ccc(O)cc1 | MTS | >100 µM |
| CCn1nc(Cc2n[nH]c(=S)o2)nc1C | - | >400 µg/mL |
| CS(=O)(=O)c1cccnc1Oc1ccc(C(=O)c2ccccc2)cc1 | - | >10 µg/mL |
| Cc1nc(Cc2n[nH]c(=S)n2-c2ccccc2)nn1C | - | 400 µg/mL |
| COc1cc(C(=O)Oc2c(-c3ccc(Cl)c(Cl)c3)oc3ccccc3c2=O)ccc1OC(C)=O | - | 1.07 µM |
| CC(C)Nc1ncnc2c1ncn2C1C[C@H](CO)[C@@H](CO)C1 | - | >200 µg/mL |
| Nc1ncnc2c1ncn2[C@@H]1C[C@H](CO)[C@@H](O)[C@H]1O | - | 4 µg/mL |
| COc1ccc(-c2cc(=O)c3c(O)cc(OC)cc3o2)cc1 | - | 106 µg/mL |
| CCSc1ccc(Oc2ccc(C(=O)c3ccccc3)cc2)nc1C#N | - | >10 µg/mL |
| COc1cc(OC[C@H]2CC[C@@H](COCc3ccccc3)O2)ncn1 | - | 67 µM |
| O=C(OC1CCCCC1)c1nc(-c2ccccn2)[nH]c(=O)c1O | luminescence | >50 µM |
| O=c1c(Cc2ccc(O)cc2)coc2ccccc12 | - | 50 µM |
| CCOC(=O)c1c(N)c2cc(-c3ccccc3)cnc2n(O)c1=O | - | <100 µM |
| CC1COc2c(N3CCN(C)CC3)c(F)cc3c(=O)c(C(=O)O)cn1c23 | - | 375 µg/mL |
| CCOC(=O)/C=C/[C@H](CCC(N)=O)NC(=O)[C@H](Cc1ccccc1)NC(=O)[C@H](CC(C)C)NC(=O)SCC | - | >100 µM |
| C=C(C)[C@@H]1CC[C@@]2(CO)C1C1CCC3[C@@]4(C)CC[C@@H](O)C(C)(C)C4CC[C@@]3(C)[C@]1(C)C[C@@H]2O | - | >10 µM |
| O=c1cc(NCc2ccccc2F)c2cccnc2n1O | - | <100 µM |
| CCOC(=O)/C=C/[C@H](C[C@@H]1CCNC1=O)NC(=O)[C@@H](CC(=O)[C@@H](NC(=O)c1cc(C)on1)C(C)C)Cc1ccc(F)cc1 | - | >1000 µM |
| CN1CCCC(CNC(=O)c2nc(-c3ccccn3)[nH]c(=O)c2O)C1 | luminescence | >50 µM |
| COc1ccc(-c2cc(N3CCCCC3)no2)c(O)c1 | - | >364 µM |
| N#Cc1cc(NC(=O)c2ccccc2)c(=O)n2c1[nH]c1ccccc12 | - | 4.8 µg/mL |
| CCOC(=O)/C=C/[C@H](CCC(N)=O)NC(=O)[C@H](Cc1ccccc1)NC(=O)[C@H](CC(C)C)NC(=O)SCc1ccccc1 | - | >320 µM |
| Cc1cccnc1-c1nc(C(=O)OCC2CCCCC2)c(O)c(=O)[nH]1 | luminescence | >50 µM |
| COc1ccc(/C=C2\COc3ccccc3C2=O)cc1 | - | 6.25 µM |
| Nc1ncnc2c1ncn2C[C@H](O)CO | - | >0.7 µg/mL |
| C#CCOc1cc(OC)ccc1-c1cc(N(CC)CC)no1 | - | 40 µM |
| CCOc1ncn(-c2ccc(NC(=S)NC3O[C@H](CO)[C@@H](O)[C@H](O)[C@H]3O)cc2)n1 | - | 100 µg/mL |
| O=c1cc(-c2cn[nH]c2)c2cccnc2n1O | - | <100 µM |
| CC(C)S(=O)(=O)c1ccc(Oc2ccc(C(=O)c3ccccc3)cc2)nc1 | - | 5 µg/mL |
| CCCOc1ncn(-c2ccc(NC(=S)NC3O[C@H](CO)[C@@H](O)[C@H](O)[C@H]3O)cc2)n1 | - | ≥200 µg/mL |
| CCOC(=O)/C=C/[C@H](CCC(N)=O)NC(=O)[C@H](Cc1ccccc1)NC(=O)[C@@H](NC(=O)OCc1ccccc1)C(C)(C)C | - | >100 µM |
| Cc1cc(C=O)cc(C)c1Oc1cc(Nc2ccc(C#N)cc2)nc2ccccc12 | MTT | 3.9 µM |
| Clc1ccc(C2CCc3ccccc3O2)c(Cl)c1 | - | 25 µM |
| CC1(C)[C@@H](CO)CC[C@@]1(C)Cn1cnc2c(=O)[nH]cnc21 | - | >400 µg/mL |
| CCOc1ncn(-c2ccc(NC(=S)Nc3cccc(O)c3)cc2)n1 | - | 40 µg/mL |
| Nc1ncnc2c1ncn2[C@@H]1C=C(CO)[C@@H](O)C1 | - | >5 µg/mL |
| CN(C)c1cc(-c2ccc(O)cc2O)on1 | - | 227 µM |
| Cc1cc(-c2nc(C(=O)N[C@H](C)C3CCCCC3)c(O)c(=O)[nH]2)nc2ccccc12 | luminescence | >5.37 µM |
| Nc1nc(OC[C@H]2CC[C@@H](COCc3ccccc3)O2)cc(OC[C@@H]2CC[C@H](COCc3ccccc3)O2)n1 | - | 65 µM |
| O=C(NC1CC1)c1cc2c(s1)-c1ccccc1N(C(=O)c1ccc(NC(=O)c3ccccc3-c3ccccc3)cc1)CC2 | - | 82.3 µM |
| Nc1ncnc2c1ncn2[C@@H]1C=C(CO)[C@@H](O)[C@@H]1O | - | >0.7 µg/mL |
| Nc1nc2c(ncn2[C@@H]2O[C@H](CO)[C@@H](F)[C@H]2O)c(=O)[nH]1 | - | >400 µg/mL |
| COc1ccc(C2SCC(=O)N2c2ccc(Cl)cc2O)c(OC)c1 | absorbance | 68.2 µg/mL |
| COc1ccc(CC2COc3cc(OC)cc(OC)c3C2=O)cc1 | - | 25 µM |
| COc1ccc(C2=C3c4cc(OC)c(OC)cc4C=CN3C3C(=O)Oc4cc(O)c(OC)cc4C23)cc1O | MTT | 5.1 µM |
| CCCOc1ncn(-c2ccc(NC(=S)Nc3cccc(O)c3)cc2)n1 | - | 100 µg/mL |
| O=c1[nH]c(=O)n(C2C[C@H](CO)[C@@H](CO)C2)cc1I | - | >200 µg/mL |
| N#CC(N)=NCCN=C(N)NC(N)=[NH+]CCCCCCCCCCCC[NH+]=C(N)NC(N)=NCCN.[Cl-].[Cl-] | MTT | 244 µM |
| O=C1/C(=C/c2ccc(Cl)cc2)COc2cc(Cl)cc(Cl)c21 | - | 0.39 µM |
| N#CC(N)=NCCN=C(N)NC(N)=[NH+]CCCCCCCC[NH+]=C(N)NC(N)=NCCN.[Cl-].[Cl-] | MTT | 2830 µM |
| c1ccc(COC[C@H]2CC[C@@H](COc3cc(OC[C@H]4CC[C@@H](COCc5ccccc5)O4)ncn3)O2)cc1 | - | 175 µM |

Again, the opening 8 rows:

structure | method | result
COc1ccccc1NC(=O)c1ccccc1Oc1ccc(OCO)c(OCO)c1 | MTT | >100 µM
CN1C=CN(c2cccc(N3C=CN(C)C3)n2)C1.[Cl][Au].[Cl][Au] | sulforhodamine / absorbance | >30 µM
COc1ccc(-n2c(Cc3nc4n(n3)CCCC4)n[nH]c2=S)cc1 | - | 400 µg/mL
CCCCCCS(=O)(=O)c1ccc(Oc2ccc(C(=O)c3ccccc3)cc2)nc1 | - | >10 µg/mL
C/C(=C\CCC1(C)C=Cc2cc(O)cc(C)c2O1)CC/C=C(\C)CC[C@@H](C)C(C)(C)O | - | 24 µM
COc1ccc(C2=C3c4cc(OC)c(OC)cc4C=CN3C3C(=O)Oc4cc(OS(=O)(=O)O)c(OC)cc4C23)cc1O | MTT | 274 µM
CCn1nc(-c2ccc(Cn3ccc4ccccc43)cc2)nc1C | - | 400 µg/mL
CS(=O)(=O)c1ccc(Oc2ccc(C(=O)c3ccccc3)cc2)nc1 | - | >10 µg/mL